# In patent US20170100396A1 (priority 2015, published 2017):
# pKi: −log10 of the molar value.
# Target: PB2 cap binding domain (PB2-CBD) (residues 318-483) (Influenza A virus (A/duck/Shantou/4610/2003(H5N1)), UniProt Q2LG68)
# Assay: Cap Fluorescence-Polarization Ligand Displacement (CapFP-LD) assay (Fp)
# Set-up: species or system avian influenza strain A/duck/Shantou/4610/2003(H5N1)
# Conditions: read-out: Fp Ki; m7GTP-5FAM tracer displacement from PB2-CBD
row,Structure (SMILES),pKi
1,CC(C)c1cnc2[nH]cc(C(=O)NCC(F)(F)F)c2n1,3.77
2,CC(C)C[C@@H](NC(=O)c1c[nH]c2ncc(C3CC3)nc12)C(=O)N1CCCC1,6.15
3,O=C(N[C@@H](C(=O)N1CCOCC1)C1CC1)c1c[nH]c2ncc(C3CC3)nc12,5.21
4,O=C(N[C@@H](C(=O)NCc1ccc(Cl)cc1)C1CC1)c1c[nH]c2ncc(C3CC3)nc12,3.75
5,O=C(N[C@@H](C(=O)N1CCCC1)C1CC1)c1c[nH]c2ncc(C3CC3)nc12,4.57
6,O=C(N[C@@H](C(=O)NCc1ccccc1Cl)C1CC1)c1c[nH]c2ncc(C3CC3)nc12,< 3.90
7,O=C(N[C@@H](C(=O)N1CCC[C@@H](C(=O)N2CCOCC2)C1)C1CC1)c1c[nH]c2ncc(C3CC3)nc12,5.19
8,O=C(N[C@@H](C(=O)NCc1cccc(Cl)c1)C1CC1)c1c[nH]c2ncc(C3CC3)nc12,< 4.20
9,O=C(N[C@@H](C(=O)NCCC(=O)N1CCOCC1)C1CC1)c1c[nH]c2ncc(C3CC3)nc12,4.34
10,CC(C)c1cnc2[nH]cc(C(=O)NC3CCOC3(C)C)c2n1 (centres unmarked),3.62
11,O=C(N[C@@H](C(=O)Nc1ccccc1)C1CC1)c1c[nH]c2ncc(C3CC3)nc12,4.57
12,CC(C)C[C@@H](NC(=O)c1c[nH]c2ncc(C3CC3)nc12)C(=O)NCCC(=O)NCc1ccccn1,5.11
13,O=C(NCC(=O)N1CCCC1)c1c[nH]c2ncc(C3CC3)nc12,5.57
14,O=C(N[C@@H](C(=O)NCCc1ccc(Cl)cc1)C1CC1)c1c[nH]c2ncc(C3CC3)nc12,4.17
15,O=C(N[C@@H](C(=O)N1CCC[C@@H](C(=O)N2CCCCC2)C1)C1CC1)c1c[nH]c2ncc(C3CC3)nc12,5.32
16,O=C(N[C@@H](C(=O)N1CCc2ccccc2C1)C1CC1)c1c[nH]c2ncc(C3CC3)nc12,4.70
17,O=C(N[C@@H](C(=O)N1CC2(COC2)C1)C1CC1)c1c[nH]c2ncc(C3CC3)nc12,5.72
18,O=C(N[C@@H](C(=O)N1CC(F)(F)C1)C1CC1)c1c[nH]c2ncc(C3CC3)nc12,5.22
19,O=C(N[C@@H](C(=O)NCCC(=O)N1CCCC1)C1CC1)c1c[nH]c2ncc(C3CC3)nc12,4.75
20,N#CC(Cc1ccccc1)NC(=O)c1c[nH]c2ncc(C3CC3)nc12 (centres unmarked),5.03
21,CC(C)c1cnc2[nH]cc(C(=O)NC(C)C(C)(C)O)c2n1 (centres unmarked),< 3.00
22,CC(C)c1cnc2[nH]cc(C(=O)NC3(C#N)CC3)c2n1,4.42
23,O=C(N[C@@H](C(=O)NCc1ccc(F)c(F)c1)C1CC1)c1c[nH]c2ncc(C3CC3)nc12,< 4.51
24,O=C(N[C@@H](C(=O)NCc1cc(Cl)cc(Cl)c1)C1CC1)c1c[nH]c2ncc(C3CC3)nc12,< 5.11
25,CCN(C)C(=O)c1c[nH]c2ncc(C(C)C)nc12,< 3.00
26,O=C(N[C@@H](C(=O)NCC(=O)N1CCOCC1)C1CC1)c1c[nH]c2ncc(C3CC3)nc12,4.61

row,Structure (SMILES),pKi
1,CC(C)c1cnc2[nH]cc(C(=O)NC3CCCCC3O)c2n1 (centres unmarked),3.71
2,COCCN(CCOC)C(=O)c1c[nH]c2ncc(C(C)C)nc12,< 3.00
3,O=C(N[C@@H](C(=O)NCc1ccccc1)C1CC1)c1c[nH]c2ncc(C3CC3)nc12,4.43
4,COc1ccc(NC(=O)[C@H](NC(=O)c2c[nH]c3ncc(C4CC4)nc23)C2CC2)cc1,4.44
5,CS(=O)(=O)CCNC(=O)c1c[nH]c2ncc(-c3ccccc3Cl)nc12,< 3.18
6,CC(C)C[C@@H](NC(=O)c1c[nH]c2ncc(C3CC3)nc12)C(=O)N1CC2(CN(C(=O)OC(C)(C)C)C2)C1,5.97
7,O=C(N[C@@H](C(=O)NCc1ccc(OC(F)(F)F)cc1)C1CC1)c1c[nH]c2ncc(C3CC3)nc12,< 3.90
8,CC(C)C[C@@H](NC(=O)c1c[nH]c2ncc(C3CC3)nc12)C(=O)NCC(=O)NC1CCCC1,5.60
9,O=C(N[C@@H](C(=O)NCCC(=O)N1CCS(=O)(=O)CC1)C1CC1)c1c[nH]c2ncc(C3CC3)nc12,4.12
10,O=C(N[C@@H](C(=O)NCCc1ccccc1)C1CC1)c1c[nH]c2ncc(C3CC3)nc12,4.79
11,CC(C)C[C@@H](NC(=O)c1c[nH]c2ncc(C3CC3)nc12)C(=O)NCC(=O)Nc1ccccc1,5.31
12,Cc1ccc(CNC(=O)c2c[nH]c3ncc(C(C)C)nc23)nn1,4.85
13,CCCNC(=O)c1c[nH]c2ncc(C(C)C)nc12,4.18
14,O=C(N[C@@H](C(=O)NCc1ccncc1)C1CC1)c1c[nH]c2ncc(C3CC3)nc12,4.29
15,O=C(N[C@@H](C(=O)NCC(=O)N1CCS(=O)(=O)CC1)C1CC1)c1c[nH]c2ncc(C3CC3)nc12,4.92
16,CC1(CNC(=O)c2c[nH]c3ncc(-c4ccccc4Cl)nc23)CCC(=O)N1 (centres unmarked),3.04
17,CC(C)C[C@@H](NC(=O)c1c[nH]c2ncc(C3CC3)nc12)C(=O)NCC(=O)NCc1ccccc1,5.17
18,O=C(N[C@@H](C(=O)N1CCC[C@H](C(=O)N2CCCCC2)C1)C1CC1)c1c[nH]c2ncc(C3CC3)nc12,5.07
19,CC(C)C[C@@H](NC(=O)c1c[nH]c2ncc(C3CC3)nc12)C(=O)NCCC(=O)NCc1ccccc1,5.08
20,O=C(N[C@@H](C(=O)NCC(=O)N1CCCC1)C1CC1)c1c[nH]c2ncc(C3CC3)nc12,4.88
21,O=C(N[C@@H](C(=O)NCc1ccc(F)cc1)C1CC1)c1c[nH]c2ncc(C3CC3)nc12,< 4.51
22,O=C(NCC(=O)N1CCCC1)c1c[nH]c2ncc(Br)nc12,5.04
23,O=C(N[C@@H](C(=O)NCc1ccc(C(F)(F)F)cc1)C1CC1)c1c[nH]c2ncc(C3CC3)nc12,< 3.90
24,CC(C)C[C@@H](NC(=O)c1c[nH]c2ncc(C3CC3)nc12)C(=O)NCCC(=O)NC1CCCC1,4.91
25,O=C(N[C@@H](C(=O)NCc1ccc(Cl)c(Cl)c1)C1CC1)c1c[nH]c2ncc(C3CC3)nc12,< 3.90
26,O=C(N[C@@H](C(=O)N1CCN(Cc2ccccc2)CC1)C1CC1)c1c[nH]c2ncc(C3CC3)nc12,3.78

row,Structure (SMILES),pKi
1,O=C(N[C@@H](C(=O)N1CCCCC1)C1CC1)c1c[nH]c2ncc(C3CC3)nc12,5.36
2,O=C(N[C@@H](C(=O)NCc1cccnc1)C1CC1)c1c[nH]c2ncc(C3CC3)nc12,4.73
3,O=C(N[C@@H](C(=O)N1CCC2(CCN(Cc3ccccc3)C2=O)C1)C1CC1)c1c[nH]c2ncc(C3CC3)nc12 (some centres unmarked),4.95
4,CC(C)(NC(=O)c1c[nH]c2ncc(C3CC3)nc12)C(=O)N1CCCC1,3.58
5,CC(C)c1cnc2[nH]cc(C(=O)NCCCN3CCOCC3)c2n1,4.43
6,CC(C)c1cnc2[nH]cc(C(=O)N3CCC(F)(F)CC3)c2n1,< 3.00
7,CN1CCN(C(=O)CCNC(=O)[C@H](NC(=O)c2c[nH]c3ncc(C4CC4)nc23)C2CC2)CC1,4.22
8,O=C(N[C@@H](C(=O)NCc1cccc(F)c1)C1CC1)c1c[nH]c2ncc(C3CC3)nc12,4.24
9,CC(C)NC(=O)c1c[nH]c2ncc(-c3ccccc3C(F)(F)F)nc12,≤ 4.20
10,COc1ccc(CCNC(=O)[C@H](NC(=O)c2c[nH]c3ncc(C4CC4)nc23)C2CC2)cc1,4.01
11,O=C(N[C@@H](C(=O)N1CCC[C@@H](C(=O)N2CCCC2)C1)C1CC1)c1c[nH]c2ncc(C3CC3)nc12,5.46
12,O=C(N[C@@H](C(=O)NC1CCCc2ccccc21)C1CC1)c1c[nH]c2ncc(C3CC3)nc12 (some centres unmarked),4.27
13,N#CC(NC(=O)[C@H](NC(=O)c1c[nH]c2ncc(C3CC3)nc12)C1CC1)c1ccc(C(F)(F)F)cc1 (some centres unmarked),4.13
14,COc1ccc(C(C#N)NC(=O)[C@H](NC(=O)c2c[nH]c3ncc(C4CC4)nc23)C2CC2)cc1 (some centres unmarked),< 3.90
15,O=C(N[C@@H](C(=O)N1CC2(CCC2)C1)C1CC1)c1c[nH]c2ncc(C3CC3)nc12,4.81
16,CC(C)C[C@@H](NC(=O)c1c[nH]c2ncc(C3CC3)nc12)C(=O)NCCC(=O)Nc1ccccc1,4.86
17,COc1ccc(CNC(=O)[C@H](NC(=O)c2c[nH]c3ncc(C4CC4)nc23)C2CC2)cc1,4.39
18,O=C(N[C@@H](C(=O)N1CCC[C@H](C(=O)N2CCOCC2)C1)C1CC1)c1c[nH]c2ncc(C3CC3)nc12,5.24
19,O=C(N[C@@H](C(=O)NCc1ccccc1F)C1CC1)c1c[nH]c2ncc(C3CC3)nc12,4.16
20,CC(C)C[C@@H](NC(=O)c1c[nH]c2ncc(C3CC3)nc12)C(=O)NC1CCCc2ccccc21 (some centres unmarked),≤ 3.90
21,O=C(N[C@@H](C(=O)NCCC(=O)N1CCCCC1)C1CC1)c1c[nH]c2ncc(C3CC3)nc12,4.20
22,O=C(N[C@@H](C(=O)N1CCC[C@H](C(=O)N2CCCC2)C1)C1CC1)c1c[nH]c2ncc(C3CC3)nc12,5.16
23,O=C(N[C@H](C(=O)N1CCCC1)C1CC1)c1c[nH]c2ncc(C3CC3)nc12,6.85
24,CC(C)C[C@@H](NC(=O)c1c[nH]c2ncc(C3CC3)nc12)C(=O)NCC(=O)NCc1ccccn1,5.26
25,CC(C)C[C@@H](NC(=O)c1c[nH]c2ncc(C3CC3)nc12)C(=O)N1CC2(CNC2)C1,5.29
